The results in this text go back to patent US20190085033A1.

For this experiment, the target named is BG505 SOSIP.664. The experiment in a line: SPR.

Usually Kd stands for the equilibrium constant for the complex coming apart. Low values mean tighter binding, high ones weaker binding.

In the case of PGT128, the Kd was determined as 8 nM.
